Measured values taken from patent US8822420B2, “Peptides and aptamers thereof as specific modulators of mutant p53 function” (Universita Degli Studi di Trieste, priority 2008, dated 2014).

Assays:
endogenous p53 R175H = biological target: T1, endogenous p53 R175H (Homo sapiens, UniProt P04637, R175H); experiment: In vitro binding of biotinylated 16mers, Sk-Br-3 cellular extracts; conditions: Sk-Br-3 lysate, unconstrained biotin-16mer 10 mM, 2 hours at 4° C., streptavidin pull-down
T1 construct: cellular extracts from Sk-Br-3 cells or HT-29 cells, expressing endogenous p53 R175H and R273H respectively; endogenous in cells; host or cells: Sk-Br-3 cell lysate

endogenous p53 R273H = biological target: T2, endogenous p53 R273H (Homo sapiens, UniProt P04637, R273H); experiment: In vitro binding of biotinylated 16mers, HT-29 cellular extracts; conditions: HT-29 lysate, unconstrained biotin-16mer 10 mM, 2 hours at 4° C., streptavidin pull-down
T2 construct: cellular extracts from Sk-Br-3 cells or HT-29 cells, expressing endogenous p53 R175H and R273H respectively; endogenous in cells; host or cells: HT-29 cell lysate

DVADWESCGEYWCYRV [sA79]
in vitro binding of biotinylated 16mer to p53 R175H (endogenous p53 R175H): strongest interactor
in vitro binding of biotinylated 16mer to p53 R273H (endogenous p53 R273H): strongest interactor
